Results of unrelated studies side by side (data: NIAID ChemDB).

All rows: growth or infection tests; organism: HIV-1; measure: EC50

Blank or dashed fields: not listed here. ECn: concentration that inhibits the pathogen or its effect by n%. Rows are shuffled and stem from different studies.

SMILES	strain	changes	cell line	read by	conditions	result
Cc1ccnc2c1NC(=O)c1cccnc1N2C1CC1	ROJO		PBMC	cytopathic effect / XTT	clinical isolate	0.3 µM
Cc1cc(S(N)(=O)=O)ccc1NC(=O)COc1ccc(Cl)cc1C(=O)c1cc(Cl)cc(C#N)c1	NNRTI-resistant (RT P236L)	RT-P236L	MAGI	β-galactosidase		0.0011 µM
Nc1ccn([C@H]2C=C[C@@H](CO)O2)c(=O)n1	HXB2	RT-T215Y	CD4+HELA + HeLa	plaque count		0.6 µM
Cn1c2ccccc2c2c1cc(C#N)c(=O)n2-c1ccc([N+](=O)[O-])cc1	NNRTI-resistant	RT-Y181C	HeLa	luciferase		0.0322 µM
CC[C@@H](C)[C@H](C(=O)O)N1C[C@H](CN2CCC(c3cc(Cc4ccc(S(=O)(=O)c5ccccc5)cc4)nn3CC)CC2)[C@@H](c2cccc(F)c2)C1	BaL		HeLa	β-galactosidase		<0.0004 µM
O=c1[nH]cnc2c1ncn2[C@H]1CC[C@@H](CO)O1	NL4-3 WT		HeLa	luciferase		2.64 µM
Nc1ccn([C@H]2CC[C@@H](CO)O2)c(=O)n1	HXB2		CD4+HELA + HeLa	plaque count		0.07 ± 0.04 µM
Cc1ccnc2c1NC(=O)c1cccnc1N2C1CC1	HXB2(181) (RT-Y181C	RT-Y181C	HT4 + HT4 LacZ-1	plaque count		15.1 µM
CCCOc1ccc(Cc2cc(C3CCN(C[C@H]4CN([C@@H](C(=O)O)C5CCCCC5)C[C@@H]4c4cccc(F)c4)CC3)n(CC)n2)cc1	BaL		HeLa	β-galactosidase	50% human serum	<0.1 µM
S=C(NCCc1cccs1)Nc1ccc(Br)cn1	N833-1 Clinical isolate NRTI-resistant	RT-K20R T215Y	HT4 + HeLa	plaque count		0.05 µM
C#C[C@@]1(CO)C=C[C@H](n2cc(C)c(=O)[nH]c2=O)O1	HXB2	RT-Y181C	MAGI (CCR5) + MAGI	β-galactosidase		1.5 µM
CCn1nc(Cc2ccc(Cl)cc2)cc1C1CCN(C[C@H]2CN([C@@H](C(=O)O)C(C)C)C[C@@H]2c2cccc(F)c2)CC1	BaL		HeLa	β-galactosidase		<0.0037 µM
CC(=O)N1CCC(C(=O)N(CCCN2CCC(Cc3ccc(C(N)=O)cc3)CC2)c2ccc(C)c(Cl)c2)CC1	X4 subtype B_1 recombinant		U87 (CD4+ CXCR4+) + U87	luciferase		>19 µM
CCn1nc(Cc2ccc(C#N)cc2)cc1C1CCN(C[C@H]2CN([C@@H](C(=O)O)C(C)(C)C)C[C@@H]2c2cccc(F)c2)CC1	BaL		HeLa	β-galactosidase	50% human serum	<0.0037 µM
Cc1ccnc2c1NC(=O)c1cccnc1N2C1CC1	HXB2	RT-Y181C	MAGI (CCR5) + MAGI	β-galactosidase		3.8 µM
CCn1nc(Cc2ccc(OC(C)(C)C)cc2)cc1C1CCN(C[C@H]2CN([C@@H](C(=O)O)C(C)(C)C)C[C@@H]2c2cccc(F)c2)CC1	BaL		HeLa	β-galactosidase	50% human serum	<0.3 µM
C#C[C@]1(CO)O[C@@H](n2cnc3c(N)nc(F)nc32)C[C@@H]1O	Clinical isolate	L741I	MT4-GFP	fluorescence		0.00097 µM
CCOc1cccc(Cc2cc(C3CCN(C[C@H]4CN([C@@H](C(=O)O)[C@@H](C)CC)C[C@@H]4c4cccc(F)c4)CC3)n(CC)n2)c1	BaL		HeLa	β-galactosidase	50% human serum	<0.1 µM
Cc1cn([C@H]2C[C@H](N=[N+]=[N-])[C@@H](CO)O2)c(=O)[nH]c1=O	NRTI resistant	RT-M184V	HeLa	luciferase		0.0049 µM
O=c1[nH]cnc2c1ncn2[C@H]1CC[C@@H](CO)O1	RTMN(181 184) (RT M41L Y181C M184V T215Y)	RT-M41L Y181C M184V T215Y	HT4 + HT4 LacZ-1	plaque count		2.6 µM
Cc1ccnc2c1NC(=O)c1cccnc1N2C1CC1	RTMC	RT-D67N K70R T215Y K219Q	HT4 + HT4 LacZ-1	plaque count		0.05 µM

For reference, 2 entries again:

{"SMILES": "CC[C@@H](C)[C@H](C(=O)O)N1C[C@H](CN2CCC(c3cc(Cc4ccc(S(=O)(=O)c5ccccc5)cc4)nn3CC)CC2)[C@@H](c2cccc(F)c2)C1", "strain": "BaL", "cell line": "HeLa", "read by": "β-galactosidase", "result": "<0.0004 µM"}
{"SMILES": "Cc1ccnc2c1NC(=O)c1cccnc1N2C1CC1", "strain": "HXB2", "changes": "RT-Y181C", "cell line": "MAGI (CCR5) + MAGI", "read by": "β-galactosidase", "result": "3.8 µM"}